Measurements taken from patent publication US5776928A (priority 1995, dated 1998).

System: 5-HT-2 receptor
Test: activity at the 5-HT-2 receptor
Conditions: anhydrous Form I

Cc1cc2c(s1)Nc1ccccc1N=C2N1CCN(C)CC1 [anhydrous Form I compound]
activity at the 5-HT-2 receptor: active
